Earlier results, collected in publication PMC8611036, “An integrated method for optimized identification of effective natural inhibitors against SARS-CoV-2 3CLpro” (Scientific Reports, 2021).
Where two headings read alike, the source gives them in different places.

Molecular target: SARS-CoV-2 3CLpro (Severe acute respiratory syndrome coronavirus 2, UniProt P0DTD1)
Conditions: cited from earlier work; for IC50: unit not printed (pIC50 corresponds to µM)
[1] = from literature IC50, ref Zhu, Wei et al. ACS pharmacology & translational science vol. 3,5 (2020): 1008-1016
[2] = ref Zhu, Wei et al. ACS pharmacology & translational science vol. 3,5 (2020): 1008-1016
[3] = test set (SARS-CoV-2 3CLpro inhibitors), collected from literature
[4] = from literature IC50, ref Su, Hai-Xia et al. Acta pharmacologica Sinica vol. 41,9 (2020): 1167-1177
[5] = ref Su, Hai-Xia et al. Acta pharmacologica Sinica vol. 41,9 (2020): 1167-1177

Compound: NS(=O)(=O)c1cccc2c1C(=O)c1cccc(O)c1C2=O
- pIC50 [1]: 5.007
- IC50 [2]: 9.84 µM

Compound: O=C1C(SCCO)=C(SCCO)C(=O)c2ccccc21
- pIC50 [1]: 4.746
- pIC50 [3]: 4.746

Compound: CCCCCCCCCCCCCCCc1cccc(O)c1C(=O)O
- pIC50 [1]: 4.957
- pIC50 [3]: 4.957
- IC50 [2]: 11 µM

Compound: O=C[C@H](C[C@@H]1CCNC1=O)NC(=O)[C@H](Cc1cccc(F)c1)NC(=O)c1cc2ccccc2[nH]1 (single isomer, unassigned)
- pIC50 (from literature IC50, ref Ullrich, Sven, and Christoph Nitsche. Bioorganic & medicinal chemistry letters vol. 30,17 (2020): 127377): 7.398
- pIC50 [3]: 7.398
- IC50 (ref Ullrich, Sven, and Christoph Nitsche. Bioorganic & medicinal chemistry letters vol. 30,17 (2020): 127377): 0.04 µM

Compound: CC1OC(OCC2OC(OCCc3ccc(O)c(O)c3)C(O)C(OC(=O)C=Cc3ccc(O)c(O)c3)C2O)C(O)C(O)C1O (single isomer, unassigned) [CMP64]
- pIC50 [4]: 5.233
- IC50 [5]: 5.85 µM

Compound: CC1OC(OCC2OC(OCCc3ccc(O)c(O)c3)C(O)C(OC(=O)C=Cc3ccc(O)c(O)c3)C2O)C(O)C(O)C1O (single isomer, unassigned) [CMP63]
- pIC50 [4]: 5.262
- IC50 [5]: 5.47 µM

Compound: COCCn1c2c([n+](Cc3cnccn3)c1C)C(=O)c1ccccc1C2=O
- pIC50 (from literature IC50, ref Zhu, Wei et al. ACS pharmacology & translational science vol. 3,5 (2020): 1008-1016, tested form: Br): 4.866
- pIC50 (test set (SARS-CoV-2 3CLpro inhibitors), collected from literature, tested form: Br): 4.866

Compound: CC1(C)CCC2=C(O1)c1ccccc1C(=O)C2=O
- pIC50 [1]: 4.875
- pIC50 [3]: 4.875
- IC50 [2]: 13.3 µM

Compound: O=c1c(O)c(-c2ccc(O)c(O)c2)oc2cc(O)c(O)c(O)c12
- pIC50 (from literature IC50, ref Liu, Hong-Bo et al. bioRxiv 2020.04.10.035824): 5.907
- pIC50 [3]: 5.907

Compound: COc1ccc2cc(-c3cc(-c4cc(Cl)cc(Cl)c4)nn3[C@@H](C)c3ccc(C(=O)NCCC(=O)O)cc3)ccc2c1
- pIC50 [1]: 4.614
- IC50 [2]: 24.3 µM

Compound: CC1OC(OC2C(O)C(OCCc3ccc(O)c(O)c3)OC(COC3OCC(O)(CO)C3O)C2OC(=O)C=Cc2ccc(O)c(O)c2)C(O)C(O)C1O (stereo not drawn)
- pIC50 [4]: 5.541
- IC50 [5]: 2.88 µM

Compound: CC(NC(=O)[C@H](Cc1ccccc1)NC(=O)OCc1ccccc1)C(=O)CF (stereo partly drawn)
- pIC50 [1]: 4.943
- IC50 [2]: 11.4 µM

Compound: CCCCCCCCCCCCCCCCC(C(=O)O)C(O)(CC(=O)O)C(=O)O (stereo not drawn)
- pIC50 [1]: 4.628
- IC50 [2]: 23.5 µM

Compound: O=C1c2ccccc2-[n+]2ccc3c([nH]c4ccccc43)c21
- pIC50 (from literature IC50, ref Zhu, Wei et al. ACS pharmacology & translational science vol. 3,5 (2020): 1008-1016, tested form: Cl): 5.002
- IC50 (ref Zhu, Wei et al. ACS pharmacology & translational science vol. 3,5 (2020): 1008-1016, tested form: Cl): 9.96 µM

Compound: CC#C[C@@H](CC(=O)O)c1ccc(OCc2cccc(-c3ccc(C(F)(F)F)cc3)c2)cc1
- pIC50 [1]: 4.617
- IC50 [2]: 24.2 µM
